Values of other authors in publication PMC8619967.

Target: HIV-1 capsid (Human immunodeficiency virus 1) (UniProt O93182)

CPSF6 FG-motif (from UniProt Q16630)
Kd: 80 µM
